Data as given in PubChem BioAssay AID1259414 (Drosophila RNAi Screening Center, 2018)

Aim: 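Genome-wide screen for host control of endosymbiont load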 (primary screen)
Cells: Drosophila JW18 cells infected with Wolbachia
Knock-down reagent: long dsRNA against Drosophila genes, 0.25 µg dsRNA per well of a 384-well plate
Time to read-out: 5 days
Treatment: cells persistently infected with Wolbachia before knock-down; no added drug
Measurement: 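Imaged fluorescence in situ signal for Wolbachia 23S rRNA per DAPI-counted host cell, given as a robust z-score within each plate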
Reading the numbers: Wolbachia per cell robust z: higher = more Wolbachia per host cell than the plate typical
Active means: 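Active if absolute robust z reaches 1.5 in two or more of three replicates, leaving out multi- or no-target dsRNAs, genes unexpressed in JW18 and A1 wells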
The deposit covers about 24,000 reagents; shown is a random part of those that have a named target and a result. Of all reagents, about 1,210 (5%) are marked active. 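Inactive calls also include excluded dsRNAs with several or no targets, genes unexpressed in JW18, and well A1, regardless of score.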 Unmarked entries are inactive. The numbers tell different reagents against one gene apart. A plus sign joins genes that one reagent is predicted to hit.

target | dsRNA no. | Wolbachia per cell robust z, rep 1 | Wolbachia per cell robust z, rep 2 | Wolbachia per cell robust z, rep 3
CG30284 | 1 | -0.618 | -0.629 | -0.284
CG1246 | 1 | 0.194 | 0.373 | 0.386
scro (scarecrow) | 1 | -0.102 | -1.78 | -0.748
CG33645 | 1 | -0.00277 | -5.19 | -1.46
plh (pasang lhamu) | 1 | -0.35 | -1.31 | 0.565
mtrm (matrimony) | 1 | -2.39 | 0.47 | 0.163
AANATL6 (Arylalkylamine N-acetyltransferase-like 6) | 1 | 0.659 | -0.655 | -2.01
AANATL6 (Arylalkylamine N-acetyltransferase-like 6) | 2 | 0.425 | 1.32 | -1.14
Ir68a (Ionotropic receptor 68a) | 1 | -0.668 | 0.353 | -2.78
Or1a (Odorant receptor 1a) | 1 | 0.074 | 0.653 | 0.35
CG14130 | 1 | -0.0871 | -0.00206 | -0.736
CG6209 | 1 | -3.29 | -0.549 | 0.444
CG6209 | 2 | -1.12 | 0.235 | -0.495
COX7C (Cytochrome c oxidase subunit 7C) | 1 | -3.17 (active) | 0.271 | -3.09
CG18231 | 1 | 0.689 | -0.127 | 0.548
PolZ2 (DNA polymerase zeta subunit 2) | 1 | -7.89 | -0.868 | -1.14
CG32243 | 1 | -8.83 (active) | 0.519 | -2.39
CR31958 (pseudo) | 1 | 1.04 | 1.85 | -1.41
CR31958 (pseudo) | 2 | -3.42 | -0.461 | -1.35
CR31958 (pseudo) | 3 | -1.67 | 0.219 | -1.11
Trx2 (Thioredoxin 2) | 1 | -0.606 | -0.0871 | 0.245
Trx2 (Thioredoxin 2) | 2 | 0.314 | 0.682 | 0.148
CG31769 | 1 | -0.00455 | -1.29 | -9.58
nwk (nervous wreck) | 1 | 0.526 | -8.03 | 0.0377
nwk (nervous wreck) | 2 | -2.83 | -0.0127 | -0.354
nwk (nervous wreck) | 3 | -2.22 | -0.176 | -7.31
CG3927 + nsr | 1 | -6.05 | -1.39 | -1.42
CG17211 | 1 | -2.18 | 0.372 | -0.318
fred (friend of echinoid) | 1 | -0.102 | 0.343 | 0.844
fred (friend of echinoid) | 2 | 0.45 | 0.716 | -0.668
fred (friend of echinoid) | 3 | 0.134 | 1.17 | 1.61
fred (friend of echinoid) | 4 | 0.742 | 0.539 | -0.0896
fred (friend of echinoid) | 5 | -1.53 | -1.09 | -0.286
CG18609 | 1 | 0.605 | 0.724 | -0.308
CG18609 | 2 | -1.38 | 0.0971 | 0.506
CG17807 | 1 | -1.35 (active) | -1.61 | -4.23
CG17807 | 2 | 1.33 | 2.89 | -0.0657
CG14036 | 1 | -0.635 | 0.162 | 0.639
CG34377 | 1 | -1.17 | -2.15 | -1.47
CG34377 | 2 | -5.43 | -1.47 | -1.11
CG34377 | 3 | 0.497 | -0.335 | -0.15
CG34377 | 4 | 0.21 | 0.501 | 0.319
CG34377 | 5 | -3.94 | 0.618 | -0.725
mrt (martik) | 1 | -0.321 | -0.218 | 0.0929
mrt (martik) | 2 | -0.711 | -0.48 | -0.781
vret (vreteno) | 1 | 0.827 | -0.361 | -0.865
asRNA:Eig63F-2 (antisense RNA:Ecdysone-induced gene 63F 2) | 1 | 1.3 | 0.244 | -0.207
up (upheld) | 1 | 0.592 | -1.43 | 0.347
up (upheld) | 2 | -2.15 | 0.0737 | -1.12
CG14739 | 1 | -4.16 | -0.377 | 0.273
CG1640 | 1 | 0.635 | -7.69 | -0.904
CG2006 | 1 | -0.979 | -0.716 | 0.151
Nha2 (Na[+]/H[+] hydrogen antiporter 2) | 1 | -0.716 | 0.265 | -4.26
Nha2 (Na[+]/H[+] hydrogen antiporter 2) | 2 | 2.11 | -1.15 | -1.9
Nha2 (Na[+]/H[+] hydrogen antiporter 2) | 3 | -3.03 | 0.822 | -1.56
Sgs1 (Salivary gland secretion 1) | 1 | -2.02 | -0.181 | -0.0607
CG42690 | 1 | -0.0381 | 0.0676 | -1.86
PPO3 (Prophenoloxidase 3) | 1 | 0.04 | 0.019 | -0.639
PPO3 (Prophenoloxidase 3) | 2 | 0.478 | -0.557 | -1.68
Cap-G (Chromosome associated protein G) | 1 | -0.414 | 0.502 | 1
Cap-G (Chromosome associated protein G) | 2 | -0.673 | -0.0907 | -2.23
Cap-G (Chromosome associated protein G) | 3 | 1.16 | -0.177 | 0.385
COX7AL2 (Cytochrome c oxidase subunit 7A-like 2) | 1 | -1.21 | -1.09 | 0.367
CG10931 | 1 | 0.838 | 0.548 | 0.654
CG1307 | 1 | 1.33 | -2.38 | 0.189
ND-B12 (NADH dehydrogenase (ubiquinone) B12 subunit) | 1 | -2.17 | -0.3 | 0.0244
dmrt11E (doublesex-Mab related 11E) | 1 | 0.0366 | 0.737 | -0.481
dmrt11E (doublesex-Mab related 11E) | 2 | 0.3 | -1.26 | 0.494

Reagents listed so far called active (3):
target | dsRNA no. | Wolbachia per cell robust z, rep 1 | Wolbachia per cell robust z, rep 2 | Wolbachia per cell robust z, rep 3
COX7C (Cytochrome c oxidase subunit 7C) | 1 | -3.17 (active) | 0.271 | -3.09
CG32243 | 1 | -8.83 (active) | 0.519 | -2.39
CG17807 | 1 | -1.35 (active) | -1.61 | -4.23
